A mixed list of measured activities; the numbers were collected in NIAID ChemDB.

Common to all: toxicity to cultured cells; measure: CC50

CCn: concentration that lowers growth or viability of the cells by n%. Blank or dashed fields: not listed here. Rows are shuffled and stem from different studies.

structure,cell line,method,result
O=c1oc2c(O)c(O)cc3c(=O)oc4c(O)c(O)cc1c4c23,RAJI,ATP,>26 µM
O=c1[nH]c(=S)n([C@H]2C[C@H](O)[C@@H](CO)O2)cc1F,MRC-5,,>383 µM
Cc1cn([C@H]2C[C@H](NC(=O)NCCCCCNc3ccnc4cc(Cl)ccc34)[C@H](CO[Si](c3ccccc3)(c3ccccc3)C(C)(C)C)O2)c(=O)[nH]c1=O,HeLa cells,MTT,36.13 µM
O=c1[nH]cnc2c1ncn2[C@H]1CC[C@@H](CO)O1,MOLT-4/8,MTT,1937 µM
OC[C@H]1O[C@@H](n2cnc3cc(Cl)c(Cl)cc32)[C@H](O)[C@@H]1O,KB,,36 µM
NC[C@H]1O[C@H](O[C@H]2[C@H](O)[C@@H](O)[C@H](N)C[C@@H]2N)[C@H](N)[C@@H](O)[C@@H]1O,HEK293T,MTT,21 µM
COc1ccc(/C=C(\C#N)c2nc3ccccc3[nH]2)cc1O,293T,MTS,>50 µM
OC[C@H]1N[C@H](CO)[C@@H](O)[C@@H]1O,MOLT-4,,433 µg/mL
Nc1ccn([C@@H]2C[C@@H](O)[C@H](CO)O2)c(=O)n1,2.2.15,,>2000 µM
Cc1cn([C@H]2C[C@H](NC(=O)NCCNc3ccnc4cc(Cl)ccc34)[C@H](CO)O2)c(=O)[nH]c1=O,HeLa cells,MTT,>100 µM
CC(C)(C)OC(=O)[C@@H]1CCCN1C[C@H](O)[C@H](Cc1ccccc1)NC(=O)[C@H](CC(N)=O)NC(=O)OCc1ccccc1,JM,MTT,500 µg/mL
OC(c1cc(C23CC4CC(CC(C4)C2)C3)c2ccccc2n1)c1cccc2ccccc12,Mouse fibroblasts,MTT / absorbance,>200 µg/mL
CC1CCCC23CC4C(CC12C)C4(C)C3,RAJI,ATP,>26 µM
C[C@@H]1CC[C@H]2[C@@H](C)C(=O)O[C@@H]3OC4(C)CC[C@@H]1[C@]32OO4,Noncancerous Vero cell line,neutral red,>10 µM
CO[C@H]1/C=C/O[C@@]2(C)Oc3c(C)c(O)c4c(O)c(c(/C=N/N5CCN(C)CC5)c(O)c4c3C2=O)NC(=O)/C(C)=C\C=C\[C@H](C)[C@H](O)[C@@H](C)[C@@H](O)[C@@H](C)[C@H](OC(C)=O)[C@@H]1C,Mouse fibroblasts,MTT / absorbance,>200 µg/mL
Cc1ccc(NC(=O)NC2CCCCCCC2)cc1Cl,CCL-81,MTT,>400 µg/mL
Nc1ccn([C@@H]2O[C@H](CO)C[C@@H]2F)c(=O)n1,JM,MTT,5 µg/mL
O=C(NC1N=C(c2ccccc2)c2ccccc2NC1=O)c1cccc2c1C(=O)c1ccccc1-2,HEP-2,,4.3 µM
CC(C)Nc1cccnc1N1CCN(C(=O)c2cc3cc(NS(C)(=O)=O)ccc3[nH]2)CC1,HT4lacZ-1/IIIB,,>15 µM
CC1CCC(c2cc(C(=O)NN)nc3ccccc23)CC1,Mouse fibroblasts,MTT / absorbance,>200 µg/mL
CCCC(=O)NC1N=C(c2ccccc2)c2ccccc2NC1=O,VERO,,5 µM
Cc1cn([C@@H]2C[C@@H](O)[C@H](CO)O2)c(=O)[nH]c1=O,CV-1,,>100 µM
O=C1Nc2ccc(Cl)cc2[C@@](C#CC2CC2)(C(F)(F)F)O1,SupT1,WST,>100 µM
COc1cc(-c2cc(OC)c3c(c2)OCO3)ccc1O,1A2,XTT / absorbance,67.82 µM
C[C@@H](O)C1=C[C@@H](n2cnc3c(N)ncnc32)[C@H](O)[C@@H]1O,LLC-MK2,MTT / neutral red,5.6 µg/mL
Nc1nc(=O)n([C@H]2CO[C@@H](CO)S2)cc1F,CBMC,,>500 µM
Cc1cn([C@H]2C[C@H](N=[N+]=[N-])[C@@H](CO)O2)c(=O)[nH]c1=O,CBMC,,60 µM
Nc1ncnc2c1ncn2[C@@H]1C[C@@H](O)[C@H](CO)O1,CV-1,,>100 µM
OC[C@H]1O[C@@H](n2c(Cl)nc3nc4cc(Cl)c(Cl)cc4cc32)[C@H](O)[C@@H]1O,KB,,11 µM
Nc1nc(Cl)nc2c1ncn2/C=C1/CC1CO,H-1,,1.4 µM
C=C1CC[C@H](O)[C@@]2(C)CC[C@H](C(C)C)C[C@]12O,HOG.R5,,>20 µg/mL
Nc1nc(=O)n([C@@H]2CO[C@H](CO)S2)cc1F,CBMC,,>500 µM
CC(/C=C/C=C(\C)CC(=O)O)=C\C=C\C=C(C)\C=C\C(C)=C(/C)C(=O)O,BJ,ATP,>26 µM
Nc1nc(=O)n([C@@H]2CS[C@H](CO)O2)cc1F,BFU-E,,38 µM
Nc1ccn([C@H]2C[C@@H](O)[C@@H](CO)O2)c(=O)n1,ATH8,,>100 µM
Nc1nc(F)nc2c1ncn2/C=C1/CC1CO,DAUDI,,>50 µM
Cc1cccc2c1OP(=O)(OC[C@H]1O[C@@H](n3cc(/C=C/Br)c(=O)[nH]c3=O)C[C@@H]1OC(=O)C(C)(C)C)OC2,P3HR-1,,57 µM
CC(=O)N(O)CCCCCNC(=O)CCC(=O)N(O)CCCCCNC(=O)CCC(=O)N(O)CCCCCN,U373-MAGI,ATP,>400 µM
CC1=NN=C(C)C2C=C(C#N)C(Cl)=C12,MOUSE EMT6,,10.4 µM
O=c1[nH]c(=S)n([C@@H]2O[C@H](CO)[C@@H](O)[C@@H]2O)cc1Br,RPMI8226,,>295 µM
OC[C@H]1O[C@@H](n2c(NC3CC3)nc3cc4cc(Cl)c(Cl)cc4cc32)[C@H](O)[C@@H]1O,KB,,55 µM
C[C@H]1[C@@H](CCCOP(=O)(O)Oc2ccccc2)O[C@@H]2OC3(C)CC[C@H]4[C@H](C)CC[C@@H]1[C@@]24OO3,HCT116,,43.5 µM
OCC1OC(n2cnc3nc4cc(Cl)c(Cl)cc4nc32)C(O)C1O,KB,,>100 µM
C[C@H](CCC(=O)NCCS(=O)(=O)O)[C@H]1CC[C@H]2[C@@H]3CC[C@@H]4C[C@H](O)CC[C@]4(C)C3CC[C@]12C,MOLT-4,,>500 µg/mL
CSc1nsc(-c2ccccc2)c1C#N,L929,,20 µg/mL
Cc1cccc(NC(=O)NC2N=C(c3ccccc3)c3ccccc3NC2=O)c1,HEP-2,,4.3 µM
OC[C@H]1O[C@@H](n2c(Cl)nc3cc4cc(Cl)c(Cl)cc4nc32)[C@H](O)[C@@H]1O,KB,,8 µM
O=c1c(O)c(-c2ccc(O)c(O)c2)oc2cc(O)cc(O)c12,MIT-23,,>10 µM
N#CCSc1nsc(-c2ccccc2)c1C#N,HEP-2,,10 µg/mL
Nc1nc(=S)n([C@H]2C[C@H](O)[C@@H](CO)O2)cc1I,RPMI8226,,256 µM
Nc1[nH]c(=O)nc2c1ncn2/C=C1/C[C@@H]1CO,H-1,,61 µM
CCCSc1nsc(-c2ccccc2)c1C#N,L929,,200 µg/mL
Cc1cn([C@H]2C=C[C@@H](CO)O2)c(=O)[nH]c1=O,ATH8,,110 µM
COc1ccc(C(O)c2cc(C34CC5CC(CC(C5)C3)C4)c3ccccc3n2)cc1,Mouse fibroblasts,MTT / absorbance,>200 µg/mL
C=C1C(=O)O[C@@H]2/C=C(\COC(C)=O)CC/C=C(/C=O)C[C@@H](O)[C@@H]12,WI38 human fibroblasts,WST / absorbance,3.03 µg/mL
NC(=O)C(c1ccccc1)(c1ccccc1)[C@H]1CCCN(CCc2ccc3c(c2)CCO3)C1,PM1,,47 µM
Cc1cn([C@H]2C[C@@H](OS(C)(=O)=O)[C@@H](CO)O2)c(=O)[nH]c1=O,ATH8,,>100 µM
CC1=NN=C(C)C2C=C([N+](=O)[O-])C=C12,MOUSE EMT6,,39.7 µM
CC1(C)C=Cc2c(O)c(C(=O)c3ccccc3)c3c(c2O1)C=CC(C)(C)O3,1A2,XTT / absorbance,123 µM
CCCCCCCCCC(=O)O[C@H]1C[C@H](n2cc(/C=C/Br)c(=O)[nH]c2=O)O[C@@H]1COP1(=O)OCc2cccc(C)c2O1,P3HR-1,,>299 µM
O=C(N[C@H]1N=C(c2ccccc2)c2ccccc2NC1=O)c1cc(Br)c(Br)o1,HEP-2,,3.9 µM
OCC1OC(n2c(SCc3ccccc3)nc3nc4cc(Cl)c(Cl)cc4nc32)C(O)C1O,KB,,20 µM
O=C(c1cc(O)cc(O)c1)c1c(O)cc(O)cc1O,1A2,XTT / absorbance,110 µM
Nc1ccn([C@H]2CC[C@@H](CO)O2)c(=O)n1,MOLT-4/8,MTT,47.2 µM
O=C(NC1N=C(c2ccccc2)c2ccccc2NC1=O)c1ccc([N+](=O)[O-])cc1,VERO,,2 µM
CC1(C)CC[C@]2(C(=O)O)CC[C@]3(C)C(=CC[C@@H]4[C@@]5(C)C[C@@H](O)[C@H](O)C(C)(C)[C@@H]5CC[C@]43C)[C@@H]2C1,RAJI,ATP,>26 µM
Nc1ncnc2c1ncn2[C@H]1CC[C@@H](CO)O1,ATH8,,>500 µM
OC1C(O)C(O)C(O)C(O)C1O,RAJI,ATP,>26 µM
CCC(O)c1cc(C23CC4CC(CC(C4)C2)C3)c2ccccc2n1,Mouse fibroblasts,MTT / absorbance,>200 µg/mL
Cc1cn([C@H]2C[C@H](NC(=O)CC3CCC4(CC3)OOC3(OO4)C4CC5CC(C4)CC3C5)[C@H](CO)O2)c(=O)[nH]c1=O,HeLa cells,MTT,23.38 µM
O=C(O)P(=O)(O)O,JM,MTT,1000 µg/mL
Cc1cn([C@H]2C[C@H](N=[N+]=[N-])[C@@H](CO)O2)c(=O)[nH]c1=O,PBMC,,>0.13 µM
COC(=O)[C@H]1CC[C@@H](c2ccc[n+](C)c2)N1,HL-60,trypan blue,>50 µM
Nc1cccc2c(-c3ccccc3)ccnc12,J-Lat 10.6,MTT,17.36 µM

The first 8 rows once more:

structure	cell line	method	result
O=c1oc2c(O)c(O)cc3c(=O)oc4c(O)c(O)cc1c4c23	RAJI	ATP	>26 µM
O=c1[nH]c(=S)n([C@H]2C[C@H](O)[C@@H](CO)O2)cc1F	MRC-5		>383 µM
Cc1cn([C@H]2C[C@H](NC(=O)NCCCCCNc3ccnc4cc(Cl)ccc34)[C@H](CO[Si](c3ccccc3)(c3ccccc3)C(C)(C)C)O2)c(=O)[nH]c1=O	HeLa cells	MTT	36.13 µM
O=c1[nH]cnc2c1ncn2[C@H]1CC[C@@H](CO)O1	MOLT-4/8	MTT	1937 µM
OC[C@H]1O[C@@H](n2cnc3cc(Cl)c(Cl)cc32)[C@H](O)[C@@H]1O	KB		36 µM
NC[C@H]1O[C@H](O[C@H]2[C@H](O)[C@@H](O)[C@H](N)C[C@@H]2N)[C@H](N)[C@@H](O)[C@@H]1O	HEK293T	MTT	21 µM
COc1ccc(/C=C(\C#N)c2nc3ccccc3[nH]2)cc1O	293T	MTS	>50 µM
OC[C@H]1N[C@H](CO)[C@@H](O)[C@@H]1O	MOLT-4		433 µg/mL